Amino acid sequences for entries named in this document (tags omitted). Residues count along the entry.
UniProt T1WGN1, 43-843 E186L limits assumed: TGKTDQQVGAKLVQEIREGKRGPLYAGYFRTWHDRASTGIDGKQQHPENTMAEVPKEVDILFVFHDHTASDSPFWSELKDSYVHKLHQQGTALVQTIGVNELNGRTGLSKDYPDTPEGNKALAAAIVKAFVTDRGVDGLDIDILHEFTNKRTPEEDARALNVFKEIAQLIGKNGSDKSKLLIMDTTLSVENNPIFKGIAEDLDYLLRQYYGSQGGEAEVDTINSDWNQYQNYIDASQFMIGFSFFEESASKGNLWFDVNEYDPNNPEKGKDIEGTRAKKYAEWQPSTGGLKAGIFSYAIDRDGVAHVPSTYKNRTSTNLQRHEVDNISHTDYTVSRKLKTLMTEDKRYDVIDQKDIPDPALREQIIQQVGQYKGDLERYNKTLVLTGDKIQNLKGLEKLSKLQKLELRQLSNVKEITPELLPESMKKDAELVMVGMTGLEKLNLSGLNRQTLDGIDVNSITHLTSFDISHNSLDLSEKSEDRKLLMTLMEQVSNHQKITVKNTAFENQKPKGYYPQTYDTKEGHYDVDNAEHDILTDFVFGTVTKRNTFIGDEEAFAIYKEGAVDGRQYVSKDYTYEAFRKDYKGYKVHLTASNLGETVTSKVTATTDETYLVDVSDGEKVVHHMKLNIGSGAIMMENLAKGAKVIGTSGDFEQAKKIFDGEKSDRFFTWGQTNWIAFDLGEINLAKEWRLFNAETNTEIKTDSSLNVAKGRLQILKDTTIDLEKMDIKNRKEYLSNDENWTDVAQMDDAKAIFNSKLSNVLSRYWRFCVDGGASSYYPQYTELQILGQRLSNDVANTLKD

In paper PMC10042849:

Target: EndoS2 (Streptococcus pyogenes, UniProt T1WGN1, E186L)

Q: With `CC(=O)N[C@@H]1[C@@H](O)[C@H](O[C@@H]2O[C@H](CO)[C@@H](O[C@@H]3O[C@H](CO[C@H]4O[C@H](CO)[C@@H](O)[C@H](O)[C@@H]4O[C@@H]4O[C@H](CO)[C@@H](O[C@@H]5O[C@H](CO)[C@H](O)[C@H](O)[C@H]5O)[C@H](O)[C@H]4NC(C)=O)[C@@H](O)[C@H](O[C@H]4O[C@H](CO)[C@@H](O)[C@H](O)[C@@H]4O[C@@H]4O[C@H](CO)[C@@H](O[C@@H]5O[C@H](CO)[C@H](O)[C@H](O)[C@H]5O)[C@H](O)[C@H]4NC(C)=O)[C@@H]3O)[C@H](O)[C@H]2NC(C)=O)[C@@H](CO)O[C@H]1NC(=O)C[C@H](N)C(=O)O` as the molecule, how does the Kd read?
A: 107 µM

The structures given here were assigned with low confidence; some may be wrong.
